Measurements published in US7884097B2, “Methods and compositions comprising diamines as new anti-tubercular therapeutics” (Sequella, Inc., priority 2003, dated 2011).

What follows are compounds tested on Vero monkey kidney cells (assay: In vitro toxicity, MTS assay in Vero cells). Conditions: not given.
Format: cell-based
Description: Cytotoxicity The Vero cell line (ATCC CCL-8 1) was seeded overnight at 5×10^4 cells per well in 96-well plates at 37° C. and 5% CO2 in EMEM with essential amino acids and glutamine (BioFluids) supplemented with 10% heat-inactivated fetal bovine serum (FBS). Cells were exposed to dilutions of experimental and control drugs in triplicate for 72 hr, with each compound at a range of concentrations from 15-200 μM. Chlorpromazine (Sigma) was run as a control at the same concentrations. CellTiter 96 AQueous Assay (Promega) was used for determination of Vero cell viability. Briefly, a solution of MTS salt (3-(4,5-dimethylthiazol-2-yl)-5-(3-carboxymethoxyphenyl)-2-(4-sulfophenyl)-2H-tetrazolium) and phenazine methosulfate was added to each well and plates were incubated for 2 hr at 37° C. and 5% CO2. Absorbance of each well was read using BioRad microplate reader at 490 nm. Viability (absorbance) of cells in drug-exposed wells was compared to those in drug-free control wells, and a curve relating cell viability to drug concentration was created.

| Structure (SMILES) | SI (selectivity index, ratio of IC50:MIC) |
| --- | --- |
| c1ccc(CN2CCN(C3CCC4CCCCC4C3)CC2)cc1 (stereo not drawn) [#787, N-Benzyl-N′-2-Decalonepiperazine] | 5.6 |
| Fc1ccccc1N1CCN(C2CCC3CCCCC3C2)CC1 (stereo not drawn) [#765, N-(2-Fluorophenyl)-N′-(2-decalone)piperazine] | 11.2 |

Each compound was assayed on HepG2 cell line (assay: In vitro cytotoxicity, MTS assay in HepG2 cell line). Conditions: ratio IC50 to MIC.
Format: cell-based

| Structure (SMILES) | SI IC50:MIC |
| --- | --- |
| C1CCCC(N2CCCN(C3CCCCCCC3)CC2)CCC1 [SQ777] | 9.49 |
| C1CCC2CC(N3CCCN(C4CCC5CCCCC5C4)CC3)CCC2C1 (stereo not drawn) [SQ778, N,N′-Bis(2-Decalone)homopiperazine] | 6.92 |
| c1ccc(COc2ccc(CN3CCN(Cc4ccccc4)CC3)cc2)cc1 [SQ786, N -benzyl-N′-(4-benzyloxy)benzylpiperazine] | 17.25 |
| C=C(C)[C@@H]1CC=C(CN2CCCN(CC3=CC[C@@H](C(=C)C)CC3)CC2)CC1 [SQ781] | low SI values |
